{"source": "patent US20140273039A1", "about": "(ALBERT LUDWIGS UNIVERSIT T FREIBURG, published 2014)", "binders": {"B1": {"name": "recombinant BoNT type A light chain (enzyme)", "chain": "not shown"}}, "molecular_target": "HA-2SL (protein consisting of HaloTag, two sequences of SNAP25 […] and luciferase) (human; firefly)", "assay": "cell-based or functional assay"}
{"binder": "B1", "values": [{"measurement": "EC50, luciferase release from HaloLink Magnetic Beads, 20 minutes incubation", "result": "~1", "unit": "nM"}]}
